Results deposited as PubChem BioAssay AID504811 (Drosophila RNAi Screening Center, 2011)
Aim: 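Fly genes affecting Listeria uptake, escape from the vacuole or multiplication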 (primary screen). Cells: Drosophila SL2 cells. Reagent: long dsRNA against Drosophila genes. Treatment: infection with GFP-expressing Listeria monocytogenes; dose and duration not given. Read-out: 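Microscopy of GFP-labelled Listeria in infected cells, with each well visually classed as down, up or spots relative to controls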. Call rule: 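Hit when the GFP pattern of infection differs visibly from controls, classed as down, up or spots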. Calls: active = hit; inactive = not a hit.
The reagents shown are a selection, not the whole library. 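Only hits are listed, without non-hit dsRNAs or numeric scores; replicate 2 has entries for just two rows.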 The numbers tell different reagents against one gene apart. A plus sign joins genes that one reagent is predicted to hit. Not stated in the record: the amount of reagent, the time to read-out.

no.	gene	reagent no.	infection phenotype, replicate 1	infection phenotype, replicate 2	activity call
1	Bet3	1	less bacterial GFP than control wells (fewer infected cells or weaker signal per cell)		active
2	RpLP0	1	stronger bacterial GFP per infected cell than controls		active
3	His3:CG33818 + His3:CG33857 + His3:CG33806 + 20 more	1	stronger bacterial GFP per infected cell than controls		active
4	RpS15	1	stronger bacterial GFP per infected cell than controls		active
5	TfIIB	1	less bacterial GFP than control wells (fewer infected cells or weaker signal per cell)		active
6	Hrb27C	1	less bacterial GFP than control wells (fewer infected cells or weaker signal per cell)		active
7	RpL14	1	stronger bacterial GFP per infected cell than controls		active
8	Prosbeta4	1	less bacterial GFP than control wells (fewer infected cells or weaker signal per cell)		active
9	velo	1	less bacterial GFP than control wells (fewer infected cells or weaker signal per cell)		active
10	CycE	1	stronger bacterial GFP per infected cell than controls		active
11	CycE	2	stronger bacterial GFP per infected cell than controls		active
12	Pomp	1	less bacterial GFP than control wells (fewer infected cells or weaker signal per cell)		active
13	RpS26	1	stronger bacterial GFP per infected cell than controls		active
14	Lpt	1	less bacterial GFP than control wells (fewer infected cells or weaker signal per cell)		active
15	CG11779	1	stronger bacterial GFP per infected cell than controls		active
16	His4r	1	stronger bacterial GFP per infected cell than controls		active
17	raw	1	less bacterial GFP than control wells (fewer infected cells or weaker signal per cell)		active
18	raw	2	less bacterial GFP than control wells (fewer infected cells or weaker signal per cell)		active
19	Prp8	1	less bacterial GFP than control wells (fewer infected cells or weaker signal per cell)		active
20	CG1542	1	less bacterial GFP than control wells (fewer infected cells or weaker signal per cell)		active
21	Acp29AB	1	bacterial GFP seen as punctate clusters; pointing to bacteria failing to leave the vacuole		active
22	Rpn11	1	less bacterial GFP than control wells (fewer infected cells or weaker signal per cell)		active
23	ush	1	less bacterial GFP than control wells (fewer infected cells or weaker signal per cell)		active
24	UQCR-C1	1	stronger bacterial GFP per infected cell than controls		active
25	Rca1	1	stronger bacterial GFP per infected cell than controls		active
26	RpL10	1	stronger bacterial GFP per infected cell than controls		active
27	RpL7	1	stronger bacterial GFP per infected cell than controls		active
28	Cdc27	1	less bacterial GFP than control wells (fewer infected cells or weaker signal per cell)		active
29	dpr6	1	bacterial GFP seen as punctate clusters; pointing to bacteria failing to leave the vacuole		active
30	alphaTub84D	1	less bacterial GFP than control wells (fewer infected cells or weaker signal per cell)		active
31	RpS15Ab + RpS15Aa	1	stronger bacterial GFP per infected cell than controls		active
32	deltaCOP	1	less bacterial GFP than control wells (fewer infected cells or weaker signal per cell)		active
33	Rpt5	1	less bacterial GFP than control wells (fewer infected cells or weaker signal per cell)		active
34	Rpn3	1	less bacterial GFP than control wells (fewer infected cells or weaker signal per cell)		active
35	fne	1	less bacterial GFP than control wells (fewer infected cells or weaker signal per cell)		active
36	alphaCOP	1	less bacterial GFP than control wells (fewer infected cells or weaker signal per cell)		active
37	Srlp	1	stronger bacterial GFP per infected cell than controls		active
38	RpL12	1	stronger bacterial GFP per infected cell than controls		active
39	Tango4	1	less bacterial GFP than control wells (fewer infected cells or weaker signal per cell)		active
40	RnrS	1	stronger bacterial GFP per infected cell than controls		active
41	Cdc42	1	less bacterial GFP than control wells (fewer infected cells or weaker signal per cell)		active
42	puc	1	less bacterial GFP than control wells (fewer infected cells or weaker signal per cell)		active
43	pic	1	less bacterial GFP than control wells (fewer infected cells or weaker signal per cell)		active
44	Cenp-C	1	less bacterial GFP than control wells (fewer infected cells or weaker signal per cell)		active
45	RpS6	1	stronger bacterial GFP per infected cell than controls		active
46	RpL38	1	stronger bacterial GFP per infected cell than controls		active
47	Rab21	1	less bacterial GFP than control wells (fewer infected cells or weaker signal per cell)		active
48	Nxt1	1	less bacterial GFP than control wells (fewer infected cells or weaker signal per cell)		active
49	Act5C	1	less bacterial GFP than control wells (fewer infected cells or weaker signal per cell)		active
50	Nup153	1	stronger bacterial GFP per infected cell than controls	stronger bacterial GFP per infected cell than controls	active
51	snf	1	less bacterial GFP than control wells (fewer infected cells or weaker signal per cell)		active
52	comt	1	less bacterial GFP than control wells (fewer infected cells or weaker signal per cell)		active
53	Prosbeta6	1	less bacterial GFP than control wells (fewer infected cells or weaker signal per cell)		active
54	His2B:CG33894 + His2B:CG33872 + His2B:CG33902 + 20 more	1	stronger bacterial GFP per infected cell than controls		active
55	mute	1	less bacterial GFP than control wells (fewer infected cells or weaker signal per cell)		active
56	alphaTub84B	1	less bacterial GFP than control wells (fewer infected cells or weaker signal per cell)		active
57	Prosalpha1R + Prosalpha1	1	less bacterial GFP than control wells (fewer infected cells or weaker signal per cell)		active
58	pav	1	stronger bacterial GFP per infected cell than controls		active
59	RpL40	1	stronger bacterial GFP per infected cell than controls		active
60	RpS18	1	stronger bacterial GFP per infected cell than controls		active
61	Rpt3	1	less bacterial GFP than control wells (fewer infected cells or weaker signal per cell)		active
62	Vha68-2	1	less bacterial GFP than control wells (fewer infected cells or weaker signal per cell)		active
63	CG13258	1	less bacterial GFP than control wells (fewer infected cells or weaker signal per cell)		active
64	RpS5a	1	stronger bacterial GFP per infected cell than controls		active
65	shn	1	less bacterial GFP than control wells (fewer infected cells or weaker signal per cell)		active
66	Mfap1	1	less bacterial GFP than control wells (fewer infected cells or weaker signal per cell)		active
67	RpL39	1	stronger bacterial GFP per infected cell than controls		active
68	CycT	1	less bacterial GFP than control wells (fewer infected cells or weaker signal per cell)		active
69	Arf4	1	less bacterial GFP than control wells (fewer infected cells or weaker signal per cell)		active
70	pes	1	less bacterial GFP than control wells (fewer infected cells or weaker signal per cell)		active
71	Spx	1	stronger bacterial GFP per infected cell than controls		active
72	RpS21	1	stronger bacterial GFP per infected cell than controls		active
73	Sec61beta	1	less bacterial GFP than control wells (fewer infected cells or weaker signal per cell)		active
74	RpL18	1	stronger bacterial GFP per infected cell than controls		active
75	AdoR	1	less bacterial GFP than control wells (fewer infected cells or weaker signal per cell)		active
76	Prosalpha5	1	less bacterial GFP than control wells (fewer infected cells or weaker signal per cell)		active
77	Act57B	1	less bacterial GFP than control wells (fewer infected cells or weaker signal per cell)		active
78	Prosbeta3	1	less bacterial GFP than control wells (fewer infected cells or weaker signal per cell)		active
79	Skp2	1	stronger bacterial GFP per infected cell than controls		active
80	Rab2	1	less bacterial GFP than control wells (fewer infected cells or weaker signal per cell)		active
81	Prosalpha6	1	less bacterial GFP than control wells (fewer infected cells or weaker signal per cell)		active
82	Dp	1	stronger bacterial GFP per infected cell than controls		active
83	Cdk12	1	less bacterial GFP than control wells (fewer infected cells or weaker signal per cell)		active
84	Rab1	1	less bacterial GFP than control wells (fewer infected cells or weaker signal per cell)		active
85	Cyfip	1	less bacterial GFP than control wells (fewer infected cells or weaker signal per cell)		active
86	sncRNA:430e + His2A:CG33859 + His2A:CG33817 + 37 more	1	stronger bacterial GFP per infected cell than controls		active
87	Syb	1	less bacterial GFP than control wells (fewer infected cells or weaker signal per cell)		active
88	Cbp80	1	less bacterial GFP than control wells (fewer infected cells or weaker signal per cell)		active
89	Sar1	1	less bacterial GFP than control wells (fewer infected cells or weaker signal per cell)		active
90	Rpn8	1	less bacterial GFP than control wells (fewer infected cells or weaker signal per cell)		active
91	Prosalpha2	1	less bacterial GFP than control wells (fewer infected cells or weaker signal per cell)		active
92	Syx1A	1	less bacterial GFP than control wells (fewer infected cells or weaker signal per cell)		active
93	zetaCOP	1	less bacterial GFP than control wells (fewer infected cells or weaker signal per cell)		active
94	Cdc5	1	less bacterial GFP than control wells (fewer infected cells or weaker signal per cell)		active
95	RpS14a	1	stronger bacterial GFP per infected cell than controls		active
96	Vps28	1	less bacterial GFP than control wells (fewer infected cells or weaker signal per cell)		active
97	Spt5	1	less bacterial GFP than control wells (fewer infected cells or weaker signal per cell)		active
98	CkIIbeta	1	bacterial GFP seen as punctate clusters; pointing to bacteria failing to leave the vacuole		active
99	RpL32	1	stronger bacterial GFP per infected cell than controls	stronger bacterial GFP per infected cell than controls	active
100	Spt6	1	less bacterial GFP than control wells (fewer infected cells or weaker signal per cell)		active
101	cactin	1	stronger bacterial GFP per infected cell than controls		active
102	Trpml + CG42638	1	less bacterial GFP than control wells (fewer infected cells or weaker signal per cell)		active
103	chic	1	less bacterial GFP than control wells (fewer infected cells or weaker signal per cell)		active
104	RhoGAP92B	1	less bacterial GFP than control wells (fewer infected cells or weaker signal per cell)		active
105	betaCOP	1	less bacterial GFP than control wells (fewer infected cells or weaker signal per cell)		active
106	Prosbeta2	1	less bacterial GFP than control wells (fewer infected cells or weaker signal per cell)		active
107	FASN1	1	less bacterial GFP than control wells (fewer infected cells or weaker signal per cell)		active
108	Rab7	1	less bacterial GFP than control wells (fewer infected cells or weaker signal per cell)		active
109	Ald1	1	stronger bacterial GFP per infected cell than controls		active

Entries listed so far whose target name starts with H or h:
gene	reagent no.	infection phenotype, replicate 1	infection phenotype, replicate 2	activity call
His3:CG33818 + His3:CG33857 + His3:CG33806 + 20 more	1	stronger bacterial GFP per infected cell than controls		active
Hrb27C	1	less bacterial GFP than control wells (fewer infected cells or weaker signal per cell)		active
His4r	1	stronger bacterial GFP per infected cell than controls		active
His2B:CG33894 + His2B:CG33872 + His2B:CG33902 + 20 more	1	stronger bacterial GFP per infected cell than controls		active
